Among the data in patent US20250320281A1 are Median IC50 (µg/ml) against viruses neutralized with an IC50 <50 µg/ml values, retold here.

Holding throughout (assay): cell-based or functional assay
The target of assay [1] is Env of the clade B HIV-1 pseudoviruses of the 162-pseudovirus panel (n = 31).
Assay [2] deals with Env of the clade A HIV-1 pseudoviruses of the 162-pseudovirus panel (n = 26).
The target of assay [3] is Env of the clade AE HIV-1 pseudoviruses of the 162-pseudovirus panel (n = 10).
The target of assay [4] is Env of the clade C HIV-1 pseudoviruses of the 162-pseudovirus panel (n = 27).
For assay [5], the target named is Env of the clade F HIV-1 pseudoviruses of the 162-pseudovirus panel (n = 15).
In assay [6] the target is Env of the clade D HIV-1 pseudoviruses of the 162-pseudovirus panel (n = 25).
Assay [7] has as its target 162-pseudovirus panel representing all major circulating HIV-1 subtypes.
For assay [8], the target named is Env of the clade G HIV-1 pseudoviruses of the 162-pseudovirus panel (n = 15).
Assay [9] has as its target Env of all HIV-1 pseudoviruses of the cross-clade 162-pseudovirus panel (n = 162).
The target in assay [10] is Env of the clade AG HIV-1 pseudoviruses of the 162-pseudovirus panel (n = 10).

B1: 4995_P16 (PGT-145) (antibody, V domains shown)
VH: QVQLVQSGAEVKKPGSSVKVSCKASGNSFSNHDVHWVRQATGQGLEWMGWMSHEGDKTGLAQKFQGRVTITRDSGASTVYMELRGLTADDTAIYYCLTGSKHRLRDYFLYNEYGPNYEEWGDYLATLDVWGHGTAVTVSS
VL: EVVITQSPLFLPVTPGEAASLSCKCSHSLQHSTGANYLAWYLQRPGQTPRLLIHLATHRASGVPDRFSGSGSGTDFTLKISRVESDDVGTYYCMQGLHSPWTFGQGTKVEIK
B1: the results for the Median IC50 (µg/ml) against viruses neutralized with an IC50 <50 µg/ml in assay [1] and in assay [2] were 0.09 µg/mL and 0.4 µg/mL, respectively.

B2: 5136_H01 (PGT-131) (antibody, V domains shown)
VH: QVQLQESGPGLVKPSETLSLTCTVSGDSINTGHHYWGWVRQVPGKGPEWIAHIHYNTAVLHNPALKSRVTISIFTLKNLITLSLSNVTAADTAVYFCVRSGGDILYYIEWQKPHWFYPWGPGILVTVSS
VL: QSALTQPPSASGSLGQSLTISCSGTGSDIGSWNFVSWYQQFPGRAPNLIIFEVNRRRSGVPDRFSGSKSGNTASLTVSGLRSEDEAEYFCSSLSGRWDIVFGGGTKVTVL
For B2, the Median IC50 (µg/ml) against viruses neutralized with an IC50 <50 µg/ml came to 0.07 µg/mL in assay [1], 0.08 µg/mL in [3] and 0.09 µg/mL in [2].

B3: 4858_P08 (PGT-123) (antibody, V domains shown)
VH: QLHLQESGPGLVKPPETLSLTCSVSGASINDAYWSWIRQSPGKRPEWVGYVHHSGDTNYNPSLKRRVTFSLDTAKNEVSLKLVDLTAADSATYFCARALHGKRIYGIVALGELFTYFYMDVWGKGTAVTVSS
VL: SSMSVSPGETAKISCGKESIGSRAVQWYQQKPGQPPSLIIYNNQDRPAGVPERFSASPDFRPGTTATLTITNVDAEDEADYYCHIYDARGGTNWVFDRGTTLTVL
Consider B3, for which the Median IC50 (µg/ml) against viruses neutralized with an IC50 <50 µg/ml in assay [4] amounted to 0.01 µg/mL; in assay [5], 0.09 µg/mL; in assay [6] it was 0.02 µg/mL; in [1], 0.02 µg/mL; in assay [7], 0.03 µg/mL; in assay [8], 0.04 µg/mL. Further, the Median IC50 (µg/ml) against viruses neutralized with an IC50 <50 µg/ml came to 0.02 µg/mL in [2] and 0.03 µg/mL in [9].

B4: 5343_B08 (PGT-135) (antibody, V domains shown)
VH: QLQMQESGPGLVKPSETLSLSCTVSGDSIRGGEWGDKDYHWGWVRHSAGKGLEWIGSIHWRGTTHYKESLRRRVSMSIDTSRNWFSLRLASVTAADTAVYFCARHRHHDVFMLVPIAGWFDVWGPGVQVTVSS
VL: EIVMTQSPDTLSVSPGETVTLSCRASQNINKNLAWYQYKPGQSPRLVIFETYSKIAAFPARFVASGSGTEFTLTINNMQSEDVAVYYCQQYEEWPRTFGQGTKVDIK
In the case of B4, the Median IC50 (µg/ml) against viruses neutralized with an IC50 <50 µg/ml in assay [4] came out at 0.05 µg/mL.

B5: 4995_E20 (PGT-142) (antibody, V domains shown)
VH: QVQLVQSGPEVKKPGSSVKVSCKASGNTFSKYDVHWVRQATGQGLEWVGWISHERDKTESAQRFKGRVTFTRDTSATTAYMELRGLTSDDTAIYYCTRGSKHRLRDYVLYDDYGLINYQEWNDYLEFLDVWGHGTAVTVSS
VL: DTVVTQSPLSLPVTPGEAASMSCSSTQSLRHSNGANYLAWYQHKPGQSPRLLIRLGSQRASGVPDRFSGSGSGTHFTLKISRVEAEDAAIYYCMQGLNRPWTFGKGTKLEIK
B5: the Median IC50 (µg/ml) against viruses neutralized with an IC50 <50 µg/ml worked out at 0.09 µg/mL in assay [4], 0.4 µg/mL in [1] and 0.01 µg/mL in assay [3].

B6: 4993_K13 (PGT-141) (antibody, V domains shown)
VH: QVQLVQSGPEVKKPGSSVKVSCKASGNTFSKYDVHWVRQATGQGLEWVGWMSHEGDKTESAQRFKGRVTFTRDTSASTAYMELRGLTSDDTAIYYCTRGSKHRLRDYVLYDDYGLINYQEWNDYLEFLDVWGHGTAVTVSS
VL: DTVVTQSPLSLPVTPGEAASMSCSSTQSLRHSNGANYLAWYQHKPGQSPRLLIRLGSQRASGVPDRFSGSGSGTHFTLKISRVEAEDAAIYYCMQGLNRPWTFGKGTKLEIK
Take B6: the Median IC50 (µg/ml) against viruses neutralized with an IC50 <50 µg/ml in [8] was 0.3 µg/mL; in assay [3], 0.01 µg/mL.

B7: 4980_N08 (PGT-143) (antibody, V domains shown)
VH: QVQLEQSGAEVKKPGSSVKVSCKASGNTFSKYDVHWVRQATGQGLEWVGWMSHEGDKTESAQRFKGRVTFTRDTSASTAYMELRGLTSDDTAIYYCTRGSKHRLRDYVLYDDYGLINYQEWNDYLEFLDVWGHGTAVTVSS
VL: DTVVTQSPLSLPVTPGEAASMSCTSTQSLRHSNGANYLAWYQHKPGQSPRLLIRLGSQRASGVPDRFSGSGSGTHFTLKISRVEPEDAAIYYCMQGLNRPWTFGKGTKLEIK
B7 yielded a Median IC50 (µg/ml) against viruses neutralized with an IC50 <50 µg/ml in assay [3] of 0.02 µg/mL.

B8: 4970_K22 (PGT-144) (antibody, V domains shown)
VH: QVQLVQSGAEVKKPGSSVKVSCKASGNTFRKYDVHWVRQATGQGLEWVGWMSHEGDKTESAQRFKGRVSFTRDNSASTAYIELRGLTSDDTAIYYCTGGSKHRLRDYVLYDDYGLINQQEWNDYLEFLDVWGHGTAVTVSS
VL: DTVVTQSPLSLSVTPGEAASMSCTSTQSLRHSNGANYLAWYQHKPGQSPRLLIRLGSQRASGVPDRFSGSGSGTHFTLKISRVEADDAAIYYCMQGLNRPWTFGKGTKLEIK
Regarding B8, the Median IC50 (µg/ml) against viruses neutralized with an IC50 <50 µg/ml in assay [3] was found to be 0.1 µg/mL.

B9: 4877_D15 (PGT-122) (antibody, V domains shown)
VH: QVHLQESGPGLVKPSETLSLTCNVSGTLVRDNYWSWIRQPLGKQPEWIGYVHDSGDTNYNPSLKSRVHLSLDKSKNLVSLRLTGVTAADSAIYYCATTKHGRRIYGVVAFKEWFTYFYMDVWGKGTSVTVSS
VL: TFVSVAPGQTARITCGEESLGSRSVIWYQQRPGQAPSLIIYNNNDRPSGIPDRFSGSPGSTFGTTATLTITSVEAGDEADYYCHIWDSRRPTNWVFGEGTTLIVL
For B9, the Median IC50 (µg/ml) against viruses neutralized with an IC50 <50 µg/ml came out at 0.03 µg/mL in assay [4]; 0.02 µg/mL in [6]; 0.02 µg/mL in assay [1]; 0.05 µg/mL in assay [7]; 0.05 µg/mL in assay [8]; 0.07 µg/mL in [2]. Besides, the Median IC50 (µg/ml) against viruses neutralized with an IC50 <50 µg/ml in assay [9] came to 0.05 µg/mL.

B10: 5145_B14 (PGT-127) (antibody, V domains shown)
VH: QPQLQESGPGLVEASETLSLTCTVSGDSTGRCNYFWGWVRQPPGKGLEWIGSLSHCRSYYNTDWTYHNPSLKSRLTISLDTPKNQVFLRLTSVTAADTATYYCARFGGEVLVYRDWPKPAWVDLWGRGTLVVTVSS
VL: QSALTQPPSASGSPGQSITISCTGTSNNFVSWYQQYPGKAPKLVIYEVNKRPSGVPDRFSGSKSGSTASLTVSGLQADDEGVYYCSSLVGNWDVIFGGGTKLTVL
In the case of B10, the Median IC50 (µg/ml) against viruses neutralized with an IC50 <50 µg/ml in assay [1] amounted to 0.06 µg/mL; in assay [7], 0.08 µg/mL; in assay [2], 0.02 µg/mL; in assay [10], 0.04 µg/mL; in [9], 0.08 µg/mL.

B11: 5114_A19 (PGT-128) (antibody, V domains shown)
VH: QPQLQESGPTLVEASETLSLTCAVSGDSTAACNSFWGWVRQPPGKGLEWVGSLSHCASYWNRGWTYHNPSLKSRLTLALDTPKNLVFLKLNSVTAADTATYYCARFGGEVLRYTDWPKPAWVDLWGRGTLVTVSS
VL: QSALTQPPSASGSPGQSITISCTGTSNNFVSWYQQHAGKAPKLVIYDVNKRPSGVPDRFSGSKSGNTASLTVSGLQTDDEAVYYCGSLVGNWDVIFGGGTKLTVL
Regarding B11, the Median IC50 (µg/ml) against viruses neutralized with an IC50 <50 µg/ml in assay [4] was 0.04 µg/mL; in assay [6], 0.02 µg/mL; in assay [1], 0.01 µg/mL; in assay [7] it was 0.02 µg/mL; in assay [8], 0.04 µg/mL; in assay [3] it was 0.06 µg/mL. Besides, the values for the Median IC50 (µg/ml) against viruses neutralized with an IC50 <50 µg/ml in [2] and in assay [9] were 0.01 µg/mL and 0.02 µg/mL, respectively.

B12: 5329_C19 (PGT-136) (antibody, V domains shown)
VH: QLQLQESGPGLVKPSETLSLTCTVSGGSMRGTDWGENDFHYGWIRQSSAKGLEWIGSIHWRGRTTHYKTSFRSRATLSIDTSNNRFSLTFSFVTAADTAVYYCARHKYHDIFRVVPVAGWFDPWGQGLLVTVSS
VL: EIVMTQSPPTLSVSPGETATLSCRASQNVKNNLAWYQLKPGQAPRLLIFDASSRAGGIPDRFSGSGYGTDFTLTVNSVQSEDFGDYFCQQYEEWPRTFGQGTKVDIK
The molecule B12 gave a Median IC50 (µg/ml) against viruses neutralized with an IC50 <50 µg/ml in assay [6] of 0.05 µg/mL.

B13: 4838_L06 (PGT-121) (antibody, V domains shown)
VH: QMQLQESGPGLVKPSETLSLTCSVSGASISDSYWSWIRRSPGKGLEWIGYVHKSGDTNYSPSLKSRVNLSLDTSKNQVSLSLVAATAADSGKYYCARTLHGRRIYGIVAFNEWFTYFYMDVWGNGTQVTVSS
VL: SDISVAPGETARISCGEKSLGSRAVQWYQHRAGQAPSLIIYNNQDRPSGIPERFSGSPDSPFGTTATLTITSVEAGDEADYYCHIWDSRVPTKWVFGGGTTLTVL
Take B13: the Median IC50 (µg/ml) against viruses neutralized with an IC50 <50 µg/ml was 0.02 µg/mL in [4]; 0.01 µg/mL in assay [6]; 0.02 µg/mL in [1]; 0.03 µg/mL in assay [7]; 0.02 µg/mL in [8]; 0.02 µg/mL in [2]. In assay [9], this molecule returned a Median IC50 (µg/ml) against viruses neutralized with an IC50 <50 µg/ml of 0.03 µg/mL.
